{"sequences": {"note": "Protein sequences, listed by entry. Tags and fused reporters are not part of them. Residues count along the entry.", "UniProt P11712, whole entry": "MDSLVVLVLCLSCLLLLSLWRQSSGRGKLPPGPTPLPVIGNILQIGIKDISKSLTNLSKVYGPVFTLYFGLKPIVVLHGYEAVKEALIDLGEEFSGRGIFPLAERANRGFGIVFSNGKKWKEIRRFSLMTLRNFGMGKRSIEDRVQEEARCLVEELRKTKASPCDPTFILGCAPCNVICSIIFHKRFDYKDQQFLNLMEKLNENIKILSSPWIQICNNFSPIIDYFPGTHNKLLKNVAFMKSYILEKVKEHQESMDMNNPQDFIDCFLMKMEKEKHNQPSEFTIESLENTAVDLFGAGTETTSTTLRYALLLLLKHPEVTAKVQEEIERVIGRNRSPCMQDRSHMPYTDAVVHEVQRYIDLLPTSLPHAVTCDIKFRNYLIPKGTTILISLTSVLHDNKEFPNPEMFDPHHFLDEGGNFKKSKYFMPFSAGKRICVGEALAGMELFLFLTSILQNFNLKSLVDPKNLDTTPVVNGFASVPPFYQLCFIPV", "UniProt P08684, 2-503": "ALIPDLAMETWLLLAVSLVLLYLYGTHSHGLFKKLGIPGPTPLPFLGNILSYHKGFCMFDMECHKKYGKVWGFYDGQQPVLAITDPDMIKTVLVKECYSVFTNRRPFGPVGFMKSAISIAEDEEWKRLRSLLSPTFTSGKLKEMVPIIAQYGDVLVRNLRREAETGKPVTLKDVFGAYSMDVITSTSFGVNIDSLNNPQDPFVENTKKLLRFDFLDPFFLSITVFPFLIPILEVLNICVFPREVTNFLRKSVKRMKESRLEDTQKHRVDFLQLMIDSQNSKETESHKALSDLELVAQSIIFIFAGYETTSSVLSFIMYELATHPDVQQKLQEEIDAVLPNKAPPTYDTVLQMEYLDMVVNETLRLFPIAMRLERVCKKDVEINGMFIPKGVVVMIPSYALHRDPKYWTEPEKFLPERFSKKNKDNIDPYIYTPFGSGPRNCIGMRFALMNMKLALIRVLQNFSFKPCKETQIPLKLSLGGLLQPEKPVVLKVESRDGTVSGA"}, "source": "paper PMC9320654", "about": "“Study on In Vitro Metabolism and In Vivo Pharmacokinetics of Beauvericin” (Toxins, 2022)", "key": {"[1]": {"test": "Metabolite identification by LC-UV-MS^n in human liver microsomes", "format": "in vitro ADME", "design": "key to Detected in liver microsomes: Human: +: metabolite was detected in liver microsomes; -: metabolite was not detected in liver microsomes", "protocol": "(§1) The objectives of this study were to search for and to identify the metabolites of BEA in liver microsomes from mice, rats, dogs, monkeys and humans by LC-UV-MS^n (n = 1~2) (based on peak intensity ≥ 1% of total drug related components), and to propose its metabolic pathways.\n(§2) The test compound BEA at 10 µM was incubated with liver microsomes at 37 °C for 60 min. The positive control, 7-ethoxycoumarin (7-EC) at 10 µM, was run concurrently to assess Phase I metabolic activities in liver microsomes. […] After incubation, the samples were analyzed by LC-UV-MS (Table S7). The structures of the metabolites were proposed based on the interpretation of their MS and MS2 data. The results are presented in Table 6 and Figure 6. %Total=Peak Area of a Releted Component/Peak Area of Total Releted Component×100%"}, "CYP3A4/5": {"test_system": "CYP3A4/5", "conditions": "human liver microsomes; cited from earlier work"}, "[2]": {"test": "Metabolic stability in cryopreserved hepatocytes, human", "format": "in vitro ADME", "protocol": "(§3) BEA (10 mM) was incubated in duplicate in a 96-well plate containing a suspension of mouse, rat, monkey, dog, or human hepatocytes (0.5 × 10^6 cells/mL) at 37 °C for 1.5 h in a controlled atmosphere (5% CO2, 95% humidified incubator). BEA and the control were prepared with 50 μL of DMSO and 450 μL of acetonitrile (ACN) to achieve a final concentration of 1 μM, and then spiked into each well of 96-well plates in duplicates. Samples were withdrawn from the reaction mixture at 0, 15, 30, 60, and 90 min and were quenched with stop solution (acetonitrile containing 200 ng/mL tolbutamide and 200 ng/mL labetalol as internal standards). A cocktail of 7-ethoxycoumarin (Lot#: I1825085) was used as the positive control for the assay. The analytical plates were sealed and stored at 4 °C until LC-MS/MS analysis. The data obtained from the BEA metabolic stability assays were used to calculate the intrinsic clearance and remaining percentages, as described in Table 4 and Figure 4.\n(§4) The remaining percentages of test articles after incubation were calculated by the following equations:(7) %Remainingat Appointed Time=Peak Area Ratios of Test Article versus Internal Standard at Appointed Time/Peak Area Ratios of Test Article versus Internal Standard 0 min\n(§5) We used the equation of first order kinetics to calculate T1/2 and CLint:\n(§6) Equation of first-order kinetics:(8) Ct=C0·e^−k·t when Ct=1/2C0,T1/2=ln2/k=0.693/k (9) CLint hep=k/million cells per mL (10) CLint liver=CLint hep×Liver weight g/kg body weight×hepatocellularity"}, "[3]": {"test": "Metabolite identification by LC-UV-MS^n in dog liver microsomes", "format": "in vitro ADME", "design": "key: +: metabolite was detected in liver microsomes; -: metabolite was detected in liver microsomes", "conditions": "BEA 10 µM, 37 °C, 60 min", "protocol": "as §1, §2"}, "[4]": {"test": "Plasma stability, mouse plasma", "format": "in vitro ADME", "protocol": "(§7) The pooled frozen plasma was thawed in a water bath at 37 °C prior to the experiment. Plasma was centrifuged at 4000 rpm for 5 min, and the clots, if any, were removed. Using an Apricot automation workstation, blank plasma (98 μL/well) was added to six 96-well reaction plates (Blank, T0, T10, T30, T60, and T120). An Apricot automation workstation was used to add working solution (2 μL/well, 100 μM) to all reaction plates except the Blank plate (T0, T10, T30, T60, and T120). All reaction plates containing mixtures of compound and plasma were incubated at 37 °C in a water bath. At the end of the incubation, 400 μL of stop solution (200 ng/mL tolbutamide and 200 ng/mL labetalol in acetonitrile) was added to precipitate the protein, and the mixture was mixed thoroughly. Samples were then vortexed and centrifuged (20 min, 4000 rpm, 4 °C). After centrifugation, an Apricot automation workstation was used to transfer 50 μL of supernatant into 100 μL of HPLC water. […] The % remaining test compound after incubation in plasma was calculated using the following equation:(11) % Remaining= PAR at appointed incubation time/PAR at T0 time×100 where PAR is the peak area ratio of analyte versus internal standard (IS). […]"}, "[5]": {"test": "Plasma stability, monkey plasma", "format": "in vitro ADME", "conditions": "37 °C, n = 2", "protocol": "as §7"}, "[6]": {"test": "Metabolic stability in cryopreserved hepatocytes, dog", "format": "in vitro ADME, beagle dog", "protocol": "as §3, §4, §5, §6"}, "[7]": {"test": "Plasma stability, dog plasma", "format": "in vitro ADME", "conditions": "dog plasma (stated for the plasma of the five species)", "protocol": "as §7"}, "CYP2C9": {"target": "T1, CYP2C9 (Homo sapiens, UniProt P11712)", "T1 construct": "tissue Corning or Xenotech; host or cells: human liver microsomes (mixed gender)", "format": "in vitro ADME", "conditions": "HLMs"}, "[8]": {"test": "Metabolic stability in cryopreserved hepatocytes, mouse", "format": "in vitro ADME, CD-1 mouse", "protocol": "as §3, §4\n(§8) We used the equation of first order kinetics to calculate T1/2 and CLint: […]"}, "[9]": {"test": "Metabolic stability in liver microsomes, RLM", "format": "in vitro ADME, Sprague Dawley rat", "conditions": "scaled from RLM CLint(mic)"}, "CYP3A4": {"target": "CYP3A4 (Homo sapiens, UniProt P08684)", "test": "CYP inhibition evaluation in human liver microsomes, CYP3A4 (midazolam)", "conditions": "HLMs"}, "[10]": {"test": "Metabolic stability in liver microsomes, MLM", "conditions": "scaled from MLM CLint(mic)"}, "[11]": {"test": "Metabolite identification by LC-UV-MS^n in monkey liver microsomes", "format": "in vitro ADME", "design": "key to Detected in liver microsomes: Monkey: +: metabolite was detected in liver microsomes; -: metabolite was not detected in liver microsomes", "protocol": "as §1, §2"}, "CYP3A1/2": {"test_system": "CYP3A1/2", "design": "method as in PMID 18956271", "conditions": "rat liver microsomes; cited from earlier work"}, "[12]": {"test": "Metabolic stability in cryopreserved hepatocytes, rat", "format": "in vitro ADME, Sprague Dawley rat", "protocol": "as §3, §4, §8"}, "[13]": {"test": "Plasma stability, human plasma", "format": "in vitro ADME", "protocol": "as §7"}}, "note": "Several values for one entry are separate records, joined by “and”; a condition that tells them apart may be missing. Identical values can stand only once. Entries after “also recorded” stand apart in the source; their conditions may differ.", "data": [{"substance": "Beauvericin", "values": [{"measurement": "Detected in liver microsomes: Human", "setting": "[1]; BEA 10 µM, 37 °C, 60 min", "result": "+"}, {"measurement": "Number of metabolites detected", "setting": "[1]; HLM", "result": 13}, {"measurement": "Inhibition of midazolam 1′-hydroxylase (CYP3A4/5) activity", "setting": "CYP3A4/5", "result": "strongly inhibited; also recorded: strong inhibitor"}, {"measurement": "CLint (hep) (μL/min/10^6)", "setting": "[2]; human hepatocytes", "result": 16.6, "unit": "μL/min/10^6"}, {"measurement": "Remaining % (T = 90 min)", "setting": "[2]; human hepatocytes, 90 min", "result": 40.9, "unit": "%"}, {"measurement": "CLint(liver)", "setting": "[2]; scaled from human hepatocyte CLint", "result": 46.3, "unit": "mL/min/kg"}, {"measurement": "Detected in liver microsomes: Dog", "setting": "[3]", "result": "+"}, {"measurement": "T1/2", "setting": "[4]; 37 °C, n = 2", "result": ">4.82", "unit": "h"}, {"measurement": "Remaining % (T = 120 min)", "setting": "[4]; 120 min", "result": 110.6, "unit": "%"}, {"measurement": "T1/2", "setting": "[5]", "result": ">4.82", "unit": "h"}, {"measurement": "T1/2", "setting": "[6]; dog hepatocytes, 0.5 × 10^6 cells/mL, 1 μM, n = 2", "result": 0.26, "unit": "h"}, {"measurement": "Remaining % (T = 90 min)", "setting": "[6]; dog hepatocytes, 90 min", "result": 1.7, "unit": "%"}, {"measurement": "CLint(liver)", "setting": "[6]; scaled from dog hepatocyte CLint", "result": 612.5, "unit": "mL/min/kg"}, {"measurement": "T1/2 in plasma", "setting": "[7]", "result": "approximately 5 h"}, {"measurement": "CYP2C9 inhibitor class", "setting": "CYP2C9", "result": "weak inhibitor (IC50 > 10 μM—weak inhibitor)"}, {"measurement": "CLint (hep) (μL/min/10^6)", "setting": "[8]", "result": 19.3, "unit": "μL/min/10^6"}, {"measurement": "Remaining % (T = 90 min)", "setting": "[8]; 90 min", "result": 41.7, "unit": "%"}, {"measurement": "CLint(liver)", "setting": "[9]", "result": 97.6, "unit": "mL/min/kg"}, {"measurement": "CYP3A4 inhibitor class", "setting": "CYP3A4", "result": "potent inhibitor (IC50 < 10 μM—potent inhibitor)"}, {"measurement": "CLint(liver)", "setting": "[10]", "result": 446.2, "unit": "mL/min/kg"}, {"measurement": "Detected in liver microsomes: Monkey", "setting": "[11]; BEA 10 µM, 37 °C, 60 min", "result": "+"}, {"measurement": "Number of metabolites identified", "setting": "[11]; CLM", "result": "Fifteen"}, {"measurement": "Inhibition of CYP3A1/2", "setting": "CYP3A1/2", "result": "strong inhibitor"}, {"measurement": "CLint (hep) (μL/min/10^6)", "setting": "[12]", "result": 18.3, "unit": "μL/min/10^6"}, {"measurement": "T1/2", "setting": "[12]; 0.5 × 10^6 cells/mL, 1 μM, n = 2", "result": "> 1 h and 1.26 h"}, {"measurement": "T1/2", "setting": "[13]; 37 °C, n = 2", "result": ">4.82", "unit": "h"}, {"measurement": "Remaining % (T = 120 min)", "setting": "[13]; 120 min", "result": 106.0, "unit": "%"}]}]}
